Laboratory results reported in US6638947B2, “Carbocyclic and heterocyclic substituted semicarbazones and thiosemicarbazones and the use thereof” (Euro-Celtique S.A., priority 1997, dated 2003).

System: site 1 of the Na^+ channel
Experiment: Binding assay, site 1 of the Na^+ channel, [^3H] saxitoxin, forebrain membranes
Set-up: species or system rat

NC1=N[C@H](O)[C@H]2[C@H]3O[C@]4(O)O[C@@H]([C@@H](O)[C@@]2(N1)[C@@H]4O)[C@]3(O)CO [Tetrodotoxin]
IC50: 12 nM
